The text below walks through data of US7319143.

The target in this experiment is mouse H-2K^k class I heavy chain (endogenous, on MD45 cells) (mouse). In words: cell-based or functional assay.

With “chimeric hemagglutinin (Ha) peptide/hβ2m/ζ polypeptide (clone 407-4) (from UniProt P61769 21-119; P24161 31-164)”, the IL-2 (CTL-L bioassay, MTT O.D.) after immobilized anti-H-2K^k mAb; clone 798-1 is 0.011 O.D; the IL-2 (CTL-L bioassay, MTT O.D.) after immobilized anti-H-2K^k mAb; clone 798-2 was determined as 0.078 O.D; the IL-2 (CTL-L bioassay, MTT O.D.) after immobilized anti-H-2K^k mAb; clone 798-3 worked out at 0.013 O.D; the IL-2 (CTL-L bioassay, MTT O.D.) after immobilized anti-H-2K^k mAb; clone 798-4 was 0.009 O.D. Besides, the IL-2 (CTL-L bioassay, MTT O.D.) after immobilized anti-H-2K^k mAb; clone 798-5 is 0.008 O.D; the IL-2 (CTL-L bioassay, MTT O.D.) after immobilized anti-H-2K^k mAb; clone 798-6 was 0.007 O.D; the IL-2 (CTL-L bioassay, MTT O.D.) after immobilized anti-H-2K^k mAb; clone 798-7 was 0.011 O.D; the IL-2 (CTL-L bioassay, MTT O.D.) after immobilized anti-H-2K^k mAb; clone 798-8 is 0.008 O.D. Besides, the IL-2 (CTL-L bioassay, MTT O.D.) after immobilized anti-H-2K^k mAb; clone 798-9 amounted to 0.048 O.D; the IL-2 (CTL-L bioassay, MTT O.D.) after immobilized anti-H-2K^k mAb; clone 798-10 was 0.008 O.D; the IL-2 (CTL-L bioassay, MTT O.D.) after immobilized anti-H-2K^k mAb; clone 798-11 is 0.005 O.D; the IL-2 (CTL-L bioassay, MTT O.D.) after immobilized anti-H-2K^k mAb; clone 798-12 was found to be 0.006 O.D. For the same substance, the IL-2 (CTL-L bioassay, MTT O.D.) after immobilized anti-H-2K^k mAb; clone 798-13 was found to be 0.011 O.D; the IL-2 (CTL-L bioassay, MTT O.D.) after immobilized anti-H-2K^k mAb; clone 798-14 is 0.007 O.D; the IL-2 (CTL-L bioassay, MTT O.D.) after immobilized anti-H-2K^k mAb; clone 798-15 came out at 0.009 O.D; the IL-2 (CTL-L bioassay, MTT O.D.) after immobilized anti-H-2K^k mAb; clone 798-16 was found to be 0.069 O.D. The IL-2 (CTL-L bioassay, MTT O.D.) after immobilized anti-H-2K^k mAb; clone 798-17 worked out at 0.019 O.D; the IL-2 (CTL-L bioassay, MTT O.D.) after immobilized anti-H-2K^k mAb; clone 798-18 was 0.082 O.D; the IL-2 (CTL-L bioassay, MTT O.D.) after immobilized anti-H-2K^k mAb; clone 798-19 is 0.052 O.D; the IL-2 (CTL-L bioassay, MTT O.D.) after immobilized anti-H-2K^k mAb; clone 798-20 was 0.006 O.D. The IL-2 (CTL-L bioassay, MTT O.D.) after immobilized anti-H-2K^k mAb; clone 798-21 came out at 0.12 O.D; the IL-2 (CTL-L bioassay, MTT O.D.) after immobilized anti-H-2K^k mAb; clone 798-22 was 0.01 O.D; the IL-2 (CTL-L bioassay, MTT O.D.) after immobilized anti-H-2K^k mAb; clone 798-23 turned out to be 0 O.D.

“chimeric nucleoprotein (NP) peptide/hβ2m/ζ polypeptide (clone 406-20) (from UniProt P61769 21-119; P24161 31-164)” came in with an IL-2 (CTL-L bioassay, MTT O.D.) after immobilized anti-H-2K^k mAb; clone 797-2 of 0.003 O.D; an IL-2 (CTL-L bioassay, MTT O.D.) after immobilized anti-H-2K^k mAb; clone 797-3 of 0.162 O.D; an IL-2 (CTL-L bioassay, MTT O.D.) after immobilized anti-H-2K^k mAb; clone 797-5 of 0.001 O.D; an IL-2 (CTL-L bioassay, MTT O.D.) after immobilized anti-H-2K^k mAb; clone 797-6 of 0.002 O.D. Further, the IL-2 (CTL-L bioassay, MTT O.D.) after immobilized anti-H-2K^k mAb; clone 797-7 was found to be 0.007 O.D; the IL-2 (CTL-L bioassay, MTT O.D.) after immobilized anti-H-2K^k mAb; clone 797-8 is 0.004 O.D; the IL-2 (CTL-L bioassay, MTT O.D.) after immobilized anti-H-2K^k mAb; clone 797-9 was found to be 0.024 O.D; the IL-2 (CTL-L bioassay, MTT O.D.) after immobilized anti-H-2K^k mAb; clone 797-10 was determined as 0.161 O.D. The substance also had an IL-2 (CTL-L bioassay, MTT O.D.) after immobilized anti-H-2K^k mAb; clone 797-11 of 0.008 O.D; an IL-2 (CTL-L bioassay, MTT O.D.) after immobilized anti-H-2K^k mAb; clone 797-12 of 0.005 O.D; an IL-2 (CTL-L bioassay, MTT O.D.) after immobilized anti-H-2K^k mAb; clone 797-13 of 0.008 O.D; an IL-2 (CTL-L bioassay, MTT O.D.) after immobilized anti-H-2K^k mAb; clone 797-15 of 0.01 O.D. The substance further gave an IL-2 (CTL-L bioassay, MTT O.D.) after immobilized anti-H-2K^k mAb; clone 797-16 of 0.039 O.D; an IL-2 (CTL-L bioassay, MTT O.D.) after immobilized anti-H-2K^k mAb; clone 797-17 of 0.004 O.D; an IL-2 (CTL-L bioassay, MTT O.D.) after immobilized anti-H-2K^k mAb; clone 797-18 of 0.113 O.D; an IL-2 (CTL-L bioassay, MTT O.D.) after immobilized anti-H-2K^k mAb; clone 797-19 of 0.006 O.D. This substance showed an IL-2 (CTL-L bioassay, MTT O.D.) after immobilized anti-H-2K^k mAb; clone 797-20 of 0.02 O.D; an IL-2 (CTL-L bioassay, MTT O.D.) after immobilized anti-H-2K^k mAb; clone 797-21 of 0.011 O.D; an IL-2 (CTL-L bioassay, MTT O.D.) after immobilized anti-H-2K^k mAb; clone 797-22 of 0.02 O.D; an IL-2 (CTL-L bioassay, MTT O.D.) after immobilized anti-H-2K^k mAb; clone 797-23 of 0.008 O.D. Further, the IL-2 (CTL-L bioassay, MTT O.D.) after immobilized anti-H-2K^k mAb; clone 797-24 came out at 0.05 O.D.
